Measured values from several laboratories, pooled; numbers as filed in NIAID ChemDB.

Shared fields: tests in culture; agent: Rhinovirus; read by: cytopathic effect; read-out: EC50

Neighbouring rows are from separate reports. ECn: concentration that inhibits the pathogen or its effect by n%.

SMILES | cell line | strain or isolate | value
CCc1ccc(CCCOc2ccc(-c3noc(C(F)(F)F)n3)c(C)c2)nn1 | HeLa | serotypes 3 4 5 9 16 18 38 66 75 67 | 0.08 µg/mL
C=CCc1ncn2c(=O)[nH]c(NC(C)=O)nc12 | WI-38 | TYPE 9 | >200 µg/mL
CCOc1cc(CCCOc2c(C)cc(-c3noc(C)n3)cc2C)on1 | HeLa | Serotype 30 | 0.047 µg/mL
COc1ccc2nc([C@@H](O)[C@@H](O)c3nc4ccc(OC)cc4[nH]3)[nH]c2c1 | WI-38 | Serotype 1A | 10 µg/mL
CSc1nsc(-c2ccc(OS(=O)(=O)c3ccc(C)cc3)cc2)c1C#N | HELA-OHIO | Serotype 89 (group B) | 0.1 µM
CCOC(=O)c1ccc(OCCOc2ccc(-c3snc(SC)c3C#N)cc2)cc1 | HELA-OHIO | Serotype 86 (group A) | >2 µM
COc1ccc2nc([C@H](O)[C@@H](O)c3nc4ccc(OC)cc4[nH]3)[nH]c2c1 | WI-38 | Serotype 1A | 0.1 µg/mL
CC(=O)Nc1nc2c(CC(O)CO)ncn2c(=O)[nH]1 | WI-38 | TYPE 1A | >400 µg/mL
CSc1nsc(-c2ccc(OCCCCOc3ccc(C#N)cc3)cc2)c1C#N | HELA-OHIO | Serotype 72 (group A) | >2 µM
CCOC(=O)c1ccc(OCCCCC(=O)c2ccc(Cl)cc2)cc1 | HeLa | Serotype 2 | 2.5 µM
CSc1nsc(-c2ccccc2)c1C#N | HELA-OHIO | Serotype 42 (group A) | >80 µM
CSc1nsc(-c2ccc(OCCCCOc3ccc([N+](=O)[O-])cc3)cc2)c1C#N | HELA-OHIO | Serotype 45 (group A) | >0.5 µM
Cc1ccc(CCCOc2cc(C)c(-c3noc(C(F)(F)F)n3)c(C)c2)nn1 | HeLa | serotypes 3 4 5 9 16 18 38 66 75 67 | 0.036 µg/mL
CCOC(=O)c1ccc(OCCCCC(=O)c2ccc(C)s2)cc1 | HeLa | TYPE 14 | 1.8 µM
CSc1nsc(-c2ccc(OCCOc3ccc([N+](=O)[O-])cc3)cc2)c1C#N | HELA-OHIO | Serotype 89 (group B) | >2 µM
CCC1COC(c2ccc(OCCCCCCC(=O)c3ccc(C)s3)cc2)=N1 | HeLa | TYPE 2 | 1.25 µM
C=CCc1nc(C)n2c(=O)[nH]cnc12 | WI-38 | TYPE 1A | ≥200 µg/mL
Cc1nc(-c2cc(C)c(OCCCc3cc(C4CC4)no3)c(C)c2)no1 | HeLa | Serotype 6 | 0.84 µg/mL
CCOC(=O)c1ccc(OCCCCC(=O)c2ccc(OC)cc2)cc1 | HeLa | Serotype 2 | 10.1 µM
COC(=O)C(Cc1ccc(OCCCCC(=O)c2ccc(C)s2)cc1)NC(C)=O | HeLa | TYPE 14 | >86 µM
N#Cc1ccc(OCCCCC(=O)c2ccc(Cl)cc2)cc1 | HeLa | Serotype 2 | >319 µM
COC(=O)c1cc(CCCOc2c(C)cc(-c3noc(C)n3)cc2C)on1 | HeLa | Serotype 14 | 0.044 µg/mL
COc1ccc(-c2snc(SC)c2C#N)cc1 | HELA-OHIO | Serotype 45 (group A) | >12 µM
COc1ccc(C(=O)CCCCOc2ccc(C#N)cc2)cc1 | HeLa | Serotype 2 | >253 µM
CC(=O)c1ccc(CCCOc2c(C)cc(-c3noc(C)n3)cc2C)o1 | HeLa | 15 serotype mixtures | <0.4 µM
O[C@@H](c1nc2ccc(Cl)cc2[nH]1)[C@@H](O)c1nc2ccc(Cl)cc2[nH]1 | WI-38 | Serotype 1A | 100 µg/mL
CC(=O)c1coc(CCCOc2c(C)cc(-c3noc(C)n3)cc2C)c1 | HeLa | Serotype 14 | 1.4 µM
COc1ccc(C(=O)CCCCOc2c(Cl)cc(C3=NCCO3)cc2Cl)cc1 | HeLa | Serotype 2 | >237 µM
CSc1nsc(-c2ccc(OCCOc3ccccc3)cc2)c1C#N | HELA-OHIO | Serotype 42 (group A) | >20 µM
Cc1ccc(C(=O)CCCCOc2ccc(C3=NC(C)CO3)cc2)s1 | HeLa | TYPE 2 | 1.7 µM
COc1ccc2nc([C@H](OC(C)=O)[C@@H](OC(C)=O)c3nc4ccc(OC)cc4[nH]3)[nH]c2c1 | WI-38 | Serotype 1A | 10 µg/mL
Cc1cc(CCCCCCCOc2ccc(C3=NCCO3)cc2)on1 | HeLa | Serotype 14 | 1.8 µM
COC(=O)C(Cc1ccc(OCCCCCCC(=O)c2ccc(C)s2)cc1)NC(C)=O | HeLa | TYPE 2 | >83 µM
CCOC(=O)c1ccc(OCCCCC(=O)c2ccc(Cl)c(Cl)c2)cc1 | HeLa | Serotype 14 | >253 µM
Cc1nc(C(C)C)c2[nH]c(=S)[nH]c(=O)n12 | WI-38 | TYPE 9 | >200 µg/mL
Cc1cc(-c2noc(C(F)(F)F)n2)cc(C)c1OCCCc1cccnn1 | HeLa | serotypes 3 4 5 9 16 18 38 66 75 67 | 0.071 µg/mL
Cc1ccc(C(=O)CCCCCCOc2ccc(C3=NC(C)(C)CO3)cc2)s1 | HeLa | TYPE 2 | 1.34 µM
CSc1nsc(-c2ccc(OCCCCOc3ccccc3)cc2)c1C#N | HELA-OHIO | Serotype 85 (group B) | >20 µM
CCOC(=O)c1ccc(OCCCCC(=O)c2ccc(SC)cc2)cc1 | HeLa | Serotype 2 | 11.7 µM

For reference, 3 entries again:

SMILES,cell line,strain or isolate,value
Cc1ccc(CCCOc2cc(C)c(-c3noc(C(F)(F)F)n3)c(C)c2)nn1,HeLa,serotypes 3 4 5 9 16 18 38 66 75 67,0.036 µg/mL
N#Cc1ccc(OCCCCC(=O)c2ccc(Cl)cc2)cc1,HeLa,Serotype 2,>319 µM
CCOC(=O)c1ccc(OCCOc2ccc(-c3snc(SC)c3C#N)cc2)cc1,HELA-OHIO,Serotype 86 (group A),>2 µM